A mixed list of measured activities; the numbers were collected in NIAID ChemDB.

All rows: whole-cell or culture tests

Blank or dashed fields: not listed here. Inhibition is in % at the dose shown (toxicity tests: loss of growth or viability). Conditions beyond the fields shown may differ between rows.

compound	conditions	read by	tested at	agent	endpoint	strain	value
O=c1oc2ccc(Br)cc2c(=S)n1-c1ccc(Cl)c(Cl)c1	21 d	-	-	Mycobacterium kansasii	MIC	My 235/80	8 µM
CC1(C)N=C(N)N=C(N)N1OCCCOc1cc(Cl)c(Cl)cc1Cl	-	-	-	Mycobacterium avium complex	MIC	2212	4 µg/mL
Cc1cc2nc(C)c(C(=O)NCc3ccc(N4CCN(c5ccc(OC(F)(F)F)cc5)[C@@H](C)C4)c(F)c3)n2cc1F	-	fluorescence	0.11 µM	Mycobacterium avium	inhibition	-	85%
Cc1ccc2oc(=S)n(-c3cccc(F)c3)c(=S)c2c1	14 d	-	-	Mycobacterium kansasii	MIC	6509/96	8 µM
COc1ccn2nc(C)c(C(=O)NCc3ccc(C4CCN(c5ccc(OC(F)(F)F)cc5)CC4)c(F)c3)c2c1.Cl	-	fluorescence	0.0072 µM	Mycobacterium avium	inhibition	-	85%
Fc1ccc2oc(=S)n(-c3cccc(Cl)c3)c(=S)c2c1	14 d	-	-	Mycobacterium kansasii	MIC	My 235/80	4 µM
CC[C@H]1OC(=O)[C@H](C)[C@@H](O[C@H]2C[C@@](C)(OC)[C@@H](OC(C)=O)[C@H](C)O2)[C@H](C)[C@@H](O[C@@H]2O[C@H](C)C[C@H](N(C)C)[C@H]2OC(=O)NNC)C(C)(O)C[C@@H](C)/C(=N\OCCCC2CCCCC2)[C@H](C)[C@@H](O)[C@]1(C)O	-	-	-	Mycobacterium avium complex	MIC	20096 (clarithromycin-resistant)	3.13 µg/mL
CO[C@H]1/C=C/O[C@@]2(C)Oc3c(C)c(O)c4c(O)c(c5c(c4c3C2=O)NC2(CCN(CC(C)C)CC2)N=5)=NC(=O)/C(C)=C\C=C\[C@H](C)[C@H](O)[C@@H](C)[C@@H](O)[C@@H](C)[C@H](OC(C)=O)[C@@H]1C	-	-	-	Mycobacterium avium intracellulare	MIC	SKV	0.062 µg/mL
CC[C@H]1OC(=O)[C@H](C)[C@@H](OC2C[C@@](C)(OC)[C@@H](O)[C@H](C)O2)[C@H](C)[C@@H](O[C@@H]2O[C@H](C)C[C@H](N(C)C)[C@H]2O)C(C)(O)C[C@@H](C)/C(=N\OCCN(C)c2ccccc2)[C@H](C)[C@@H](O)[C@]1(C)O	-	-	-	Mycobacterium avium complex	MIC	20039 (clarithromycin-susceptible)	1.56 µg/mL
S=c1oc2ccc(Br)cc2c(=S)n1-c1ccccc1	21 d	-	-	Mycobacterium kansasii	MIC	6509/96	4 µM
Cc1nc2ccc(C#N)cn2c1C(=O)NCc1ccc(N2CCN(c3ccc(OC(F)(F)F)cc3)[C@@H](C)C2)c(F)c1.Cl	-	fluorescence	0.5 µM	Mycobacterium avium	inhibition	-	85%
O=c1oc2ccc(F)cc2c(=S)n1-c1ccccc1	21 d	-	-	Mycobacterium kansasii	MIC	6509/96	1 µM
Cc1ccc2nc(C)c(C(=O)NCc3ccc(-c4ccc(C(F)(F)F)cc4)cc3)n2c1	-	fluorescence	0.0022 µM	Mycobacterium avium	inhibition	-	85%
CCc1nc(N)nc(N)c1-c1ccc(Cl)cc1	-	-	-	Mycobacterium avium complex	MIC	DW5	32 µg/mL
CCc1nc2cc(C)c(Cl)cn2c1C(=O)NCc1ccc(N2CCN(c3ccc(OC(F)(F)F)cc3)[C@@H](C)C2)c(F)c1	-	fluorescence	0.035 µM	Mycobacterium avium	inhibition	-	85%
CC[C@H]1OC(=O)[C@H](C)[C@@H](O[C@H]2C[C@@](C)(OC)[C@@H](OC(C)=O)[C@H](C)O2)[C@H](C)[C@@H](O[C@@H]2O[C@H](C)C[C@H](N(C)C)[C@H]2OC(=O)NNCc2cccc([N+](=O)[O-])c2)C(C)(O)C[C@@H](C)/C(=N\OCCCC2CCCCC2)[C@H](C)[C@@H](O)[C@]1(C)O	-	-	-	Mycobacterium avium intracellulare	MIC	20066 (clarithromycin-susceptible)	0.39 µg/mL

Again, the opening 2 rows:

compound,conditions,read by,tested at,agent,endpoint,strain,value
O=c1oc2ccc(Br)cc2c(=S)n1-c1ccc(Cl)c(Cl)c1,21 d,-,-,Mycobacterium kansasii,MIC,My 235/80,8 µM
CC1(C)N=C(N)N=C(N)N1OCCCOc1cc(Cl)c(Cl)cc1Cl,-,-,-,Mycobacterium avium complex,MIC,2212,4 µg/mL